Results of unrelated studies side by side (data: NIAID ChemDB).

Common to all: growth or infection tests

Two numbers with a dash give a range or band. Inhibition is in % at the dose shown (toxicity tests: loss of growth or viability). Zone: diameter of growth inhibition. ECn is the concentration giving n% inhibition of infection, replication or growth. MIC50, MIC90 and the like: level of inhibition, or share of isolates inhibited. Conditions beyond the fields shown may differ between rows. Blank or dashed fields: not listed here.

SMILES,cells,agent,read-out,dose,strain,read by,value
Cc1cccnc1C(=O)N1c2cccc(O)c2NC2=C(C(=O)CC(C)(C)C2)C1c1ccc(OCc2ccccc2)cc1F,-,Hepatitis C virus,EC50,-,1b,luciferase / reporter gene / replicon,1.12 µM
Nc1ncnc2c1ncn2COCCO,PRK,Vesicular stomatitis virus,EC50,-,-,cytopathic effect,>400 µg/mL
N#Cc1csc(NC(=O)NCCc2ccccc2)n1,MT-4,HIV-2,inhibition,0.1 µg/mL,-,RT activity,67%
Cc1c(NC(=O)OC(C)(C)C)ccc2nc(N(CC(C)C)C(=O)NCc3cccnc3)oc(=O)c12,VERO,Herpes simplex virus 1,EC90,-,-,plaque count,>25 µM
CCc1ccc(CCCOc2cc(C)c(-c3noc(C(F)F)n3)c(C)c2)nn1,HeLa,Enterovirus,EC50,-,-,cytopathic effect,0.033–0.659 µg/mL
COc1ccc(-n2c(Cc3nc4n(n3)CCCC4)n[nH]c2=S)cc1,-,Respiratory syncytial virus,MIC,-,-,-,80 µg/mL
Cc1ccc(C)c(C(Sc2cccc[n+]2[O-])c2ccccc2)c1,HEL,Cytomegalovirus,EC50,-,-,cytopathic effect,>5 µg/mL
CN1CCN(C(=O)CNC(=O)N2c3cccc(O)c3NC3=C(C(=O)CC(C)(C)C3)C2c2ccc(OCc3ccccc3)cc2Cl)CC1,-,Hepatitis C virus,EC50,-,1b,luciferase / reporter gene / replicon,87 µM
NC1=NCCN1CC(=O)O,MRC-5,Simian cytomegalovirus,EC50,-,-,plaque count,5900 µM
CC(C)Nc1nc2cc(Cl)c(Cl)cc2n1[C@H]1O[C@@H](CO)[C@H](O)[C@@H]1O,HFF,Rat cytomegalovirus,EC50,-,-,plaque count,>11 µM
CC(=O)Nc1ccc(C(=O)O)cc1,-,Pneumocystis carinii,inhibition,10 µM,-,-,22%
COc1ccc(Cc2cn(Cc3ccc(O)cc3)c(/N=C3/NC(=O)N(C)C3=O)n2)cc1,-,Saccharomyces cerevisiae,MIC,-,ATCC 18824,-,>100 µg/mL
CCCCCCCCCCCC(Sc1cccc[n+]1[O-])c1cc(C)ccc1C,HEL,Cytomegalovirus,EC50,-,-,cytopathic effect,0.75 µg/mL
CC(=O)OCCOCn1cnc2c(Cl)ncnc21,PRK,Vesicular stomatitis virus,EC50,-,-,cytopathic effect,>400 µg/mL
Nc1cnn([C@@H]2O[C@H](CO)[C@@H](O)[C@H]2O)c(=O)n1,HEP-2,Adenovirus,inhibition,62 µg/mL,TYPE 5,-,100%
Cc1cc(CCCCCOc2c(Cl)cc(C3=NCCO3)cc2Cl)on1,VERO,Enterovirus,EC50,-,OHIO-1 (CVB2),plaque count,0.018 µg/mL
O=c1[nH]c(=O)n([C@H]2C[C@H](O)[C@@H](CO)O2)cc1I,-,Herpes simplex virus,MIC,-,WT-34,-,3.2 µg/mL
N#CC(c1ccc(Cl)cc1)c1c(Cl)cc(-n2ncc(=O)[nH]c2=O)cc1Cl,-,Toxoplasma gondii,inhibition,0.1 µg/mL,RH,-,100%
CCCCCCCCOc1ccc(/C=C(/C#N)Sc2cccc[n+]2[O-])cc1,HEL,Cytomegalovirus,EC50,-,-,cytopathic effect,1.9 µg/mL
Cc1c(NC(=O)OC(C)(C)C)ccc2nc(NCC(Cc3ccccc3)C(=O)N(C)c3ccccn3)oc(=O)c12,VERO,Herpes simplex virus 1,EC90,-,-,plaque count,10.7 µM
Cc1nc(Cc2n[nH]c(=S)n2-c2ccccc2)nn1C,-,Reovirus,MIC,-,TYPE 1,-,>80 µg/mL
Cc1cn([C@@H]2O[C@H](CO)[C@@H](O)[C@@H]2O)c(=O)[nH]c1=O,-,Herpes simplex virus,MIC,-,WT-34,-,1 µg/mL
Cc1cc(OCCCc2ccc(C(C)F)nn2)ccc1-c1noc(C(F)F)n1,HeLa,Enterovirus,EC50,-,-,cytopathic effect,0.033–0.659 µg/mL
Nc1ccn(C[C@@H](CO)OCP(=O)(O)O)c(=O)n1,MRC-5,Rat cytomegalovirus,EC50,-,-,plaque count,0.3 µM
Cc1ccc[n+]([O-])c1S(=O)(=O)Cc1cccc([N+](=O)[O-])c1C,HEL,Cytomegalovirus,EC50,-,-,cytopathic effect,>5 µg/mL
CC[C@H]1OC(=O)[C@H](C)C(=O)[C@H](C)[C@@H](O[C@@H]2O[C@H](C)C[C@H](N(C)C)[C@H]2O)[C@](C)(OC)C[C@@H](C)C(=O)[C@H](C)[C@H]2N(CCCCn3cnc(-c4cccnc4)c3)C(=O)O[C@]12C,-,Haemophilus influenzae,MIC90,-,434 strains,-,2 µg/mL
CC1(C)CC(=O)C2=C(C1)Nc1c(O)cccc1N(C(=O)CC#N)C2c1ccc(OCc2ccccc2)cc1Cl,-,Hepatitis C virus,EC50,-,1b,luciferase / reporter gene / replicon,1.21 µM
Nc1nc(Cl)c(N)c(NCC2(CO)CC(Cc3ccccc3)C2)n1,MDCK,Influenza B virus,EC50,-,B/GIFU/2/73,plaque count,0.17–0.23 µM
Cc1ccc(C)c(C(C)(Cl)S(=O)(=O)c2cccc[n+]2[O-])c1,HEL,Cytomegalovirus,EC50,-,-,cytopathic effect,20 µg/mL
CC(=O)OCCOCn1cnc2c(Cl)nc(Cl)nc21,PRK,Vesicular stomatitis virus,EC50,-,-,cytopathic effect,>10 µg/mL
Nc1nc2c(ncn2COCCOP(=O)(O)OP(=O)(O)OP(=O)(O)O)c(=O)[nH]1,Primary duck hepatocytes,Duck hepatitis B virus,EC50,-,-,-,>10 µM
CCn1nc(CC(=O)NN=C(C)C)nc1C,-,Respiratory syncytial virus,MIC,-,-,-,>400 µg/mL
OO,-,Aspergillus terreus,MIC99,-,UAB698,agar,2000 µM
CC(C)(CO)CNc1cc(Cl)nc(N)n1,MDCK,Influenza B virus,EC50,-,B/GIFU/2/73,plaque count,220 µM
O=S(=O)(Cc1cccc(F)c1)c1cccc[n+]1[O-],HEL,Cytomegalovirus,EC50,-,-,cytopathic effect,>20 µg/mL
COCc1ccc(CCCOc2cc(C)c(-c3noc(C)n3)c(C)c2)nn1,HeLa,Enterovirus,EC50,-,-,cytopathic effect,0.033–0.659 µg/mL
CCn1nc(CC(=O)N/N=C/c2ccco2)nc1C,-,Reovirus,MIC,-,TYPE 1,-,>80 µg/mL
CCOP(=O)([O-])CCC(CO)OCn1cnc2c(=O)[nH]c(N)nc21,GPE,Guinea pig cytomegalovirus,EC50,-,22122,cytopathic effect,20 µg/mL
Nc1nc2c(nc(N3CCCCC3)n2COCCO)c(=O)[nH]1,PRK,Vesicular stomatitis virus,EC50,-,-,cytopathic effect,>400 µg/mL
O=[N+]([O-])c1ccccc1CS(=O)(=O)c1cccc[n+]1[O-],HEL,Cytomegalovirus,EC50,-,-,cytopathic effect,>5 µg/mL
O=C(NN1C(=O)CSC1C1C(c2ccccc2)=Nc2ccc(Cl)cc21)N1c2ccccc2C=Cc2ccccc21,-,Aspergillus oryzae,zone,1000 µg/mL,MTCC-3567,agar diffusion,14 mm
CCCCN1C(=O)[C@@H](Cc2ccccc2)NC1=S,MT-4,HIV-2,inhibition,10 µg/mL,-,RT activity,1%
Cc1ccc(C)c(C(CC(=O)O)S(=O)(=O)c2cccc[n+]2[O-])c1,HEL,Cytomegalovirus,EC50,-,-,cytopathic effect,24 µg/mL
CCO[C@@H]1[C@@H](OCC)[C@H](Cc2ccccc2)O[C@@H]2CO[C@@H](c3ccc(Cl)cc3)O[C@@H]12,HFF,West Nile virus,EC50,-,-,cytopathic effect,>50 µg/mL
Nc1nc2c(ncn2COC(CO)CO)c(=O)[nH]1,HFF,Cytomegalovirus,inhibition,10 µM,AD169,hybridisation,74%
NNC(=O)Cc1nc2n(n1)CCCCC2,-,Sindbis virus,MIC,-,-,-,>16 µg/mL
O=c1[nH]c(=O)n(COCCO)cc1F,PRK,Vesicular stomatitis virus,EC50,-,-,cytopathic effect,>400 µg/mL
O=C1[C@@H](Cc2ccccc2)NC(=S)N1c1ccccc1,MT-4,HIV-2,inhibition,100 µg/mL,-,RT activity,95%
CCCCCCCCCCCCCCCCOCCCOP(=O)(O)CO[C@H](CO)Cn1ccc(N)nc1=O,MRC-5,Guinea pig cytomegalovirus,EC50,-,-,plaque count,0.0009 µM
CO/N=C1\CN(c2nc3c(cc2F)c(=O)c(C(=O)O)cn3C2CC2)CC1CN,-,Streptococcus pneumoniae,MIC90,-,37 isolates (minocycline-resistant),-,0.063 µg/mL
O=c1[nH]c(=O)n(COCCO)cc1Cl,PRK,Vesicular stomatitis virus,EC50,-,-,cytopathic effect,>400 µg/mL
Nc1ncnc2c1c(Br)cn2COCCO,GPE,Guinea pig herpesvirus,EC90,-,Lymphotropic,virus yield,160 µg/mL
Cc1ccc(C)c(C(CC(C)C)S(=O)(=O)c2cccc[n+]2[O-])c1,HEL,Cytomegalovirus,EC50,-,-,cytopathic effect,0.27 µg/mL
Nc1ncc(Br)c(NCC2(CO)CC(CCc3ccccc3)C2)n1,MDCK,Influenza B virus,EC50,-,B/GIFU/2/73,plaque count,0.13–0.26 µM
CCn1nc(-c2ccc(Cn3ccc4ccccc43)cc2)nc1C,-,Respiratory syncytial virus,MIC,-,-,-,80 µg/mL
Cc1ccc(C)c(C(C(N)=O)S(=O)(=O)c2cccc[n+]2[O-])c1,HEL,Cytomegalovirus,EC50,-,-,cytopathic effect,10 µg/mL
Cc1ccc2c(c1)C(C=NNC(=O)N1c3ccccc3C=Cc3ccccc31)C(c1ccccc1)=N2,-,Aspergillus terreus,zone,500 µg/mL,MTCC-1782,agar diffusion,3 mm
Nc1nc(N)c(N)c(Cl)n1,MDCK,Influenza B virus,EC50,-,B/GIFU/2/73,plaque count,>630 µM
Cc1ccc(C)c(CSc2ncccc2O)c1,HEL,Cytomegalovirus,EC50,-,-,cytopathic effect,>5 µg/mL
Brc1ccc(Cn2ccc3nc(-c4ccccc4)nc-3c2)cc1,MDBK,Bovine viral diarrhea virus,EC50,-,NADL (TYPE 1),PCR,0.12 µM
O=C1[C@@H](Cc2ccccc2)NC(=S)N1Cc1ccccc1,MT-4,HIV-2,inhibition,100 µg/mL,-,cytopathic effect / XTT,58%
Cc1nc(-c2cc(C)c(OCCCc3ccc(C(F)F)nn3)c(C)c2)no1,HeLa,Enterovirus,EC50,-,-,cytopathic effect,0.033–0.659 µg/mL
O=C(NCCc1ccccc1)Nc1nc2ccc(F)cc2s1,MT-4,HIV-2,inhibition,0.1 µg/mL,-,RT activity,4%
Cc1ccc(C)c(CS(=O)c2ncccc2O)c1,HEL,Cytomegalovirus,EC50,-,-,cytopathic effect,>50 µg/mL
COc1ccc(CCCOc2cc(C)c(-c3noc(C(F)F)n3)c(C)c2)nn1,HeLa,Enterovirus,EC50,-,-,cytopathic effect,0.033–0.659 µg/mL
Cc1c(NC(=O)OC(C)(C)C)ccc2nc(N3CCC[C@H]3C(=O)NCc3ccccn3)oc(=O)c12,VERO,Herpes simplex virus 1,EC90,-,-,plaque count,>12.5 µM
Cc1ccc(CCCOc2c(C)cc(-c3nnn(C)n3)cc2C)nn1,HeLa,Enterovirus,EC50,-,-,cytopathic effect,0.033–0.659 µg/mL
Cc1ccnc(NC(=O)NCCc2ccccc2)n1,MT-4,HIV-2,inhibition,1 µg/mL,-,RT activity,0%
C=CCc1ccc(OC)c(OC)c1,-,Candida albicans,MIC90,-,2508,turbidity,345 µg/mL
C=Cc1cn(CC(CO)CO)c(=O)[nH]c1=O,-,Duck hepatitis B virus,EC50,-,-,-,1–3 µg/mL
CC(N)C12CC3CC(CC(C3)C1)C2,VERO,Influenza A virus,EC50,-,H3N2 77 french isolates,ELISA,0.033 µg/mL
Nc1nc2c(ncn2COC(CO)CO)c(=O)[nH]1,HFF,Rhesus cytomegalovirus,EC50,-,-,plaque count,22 µM
CCCCCCCCCCCCCCCCCCOCCCOP1(=O)CO[C@@H](Cn2ccc(N)nc2=O)CO1,MRC-5,Rat cytomegalovirus,EC50,-,-,plaque count,0.005 µM
Cc1c(NC(=O)OC(C)(C)C)ccc2nc(N(CCCc3ccccc3)C(=O)NCc3cccnc3)oc(=O)c12,VERO,Herpes simplex virus 1,EC90,-,-,plaque count,>25 µM
O=C(NN=CC1C(c2ccccc2)=Nc2ccccc21)N1c2ccccc2C=Cc2ccccc21,-,Aspergillus terreus,zone,1000 µg/mL,MTCC-1782,agar diffusion,5 mm
Nc1nc2c(ncn2COC(CO)CCP(=O)([O-])O)c(=O)[nH]1,GPE,Guinea pig cytomegalovirus,EC50,-,22122,cytopathic effect,20 µg/mL
O=c1[nH]c(=O)n([C@@H]2O[C@H](CO)[C@@H](O)[C@@H]2O)cc1/C=C/Br,-,Herpes simplex virus,MIC,-,WT-20,-,1000 µg/mL
COc1ccc(C/C=C/Oc2cc(C)c(-c3noc(C(F)F)n3)c(C)c2)nn1,HeLa,Enterovirus,EC50,-,-,cytopathic effect,0.033–0.659 µg/mL
CO/N=C(/C(=O)N[C@@H]1C(=O)N2C(C(=O)O)=C(COC(N)=O)CS[C@H]12)c1ccco1,-,Haemophilus influenzae,MIC90,-,434 strains,-,1 µg/mL

4 of the rows above, restated:

SMILES,cells,agent,read-out,dose,strain,read by,value
CC(C)(CO)CNc1cc(Cl)nc(N)n1,MDCK,Influenza B virus,EC50,-,B/GIFU/2/73,plaque count,220 µM
C=CCc1ccc(OC)c(OC)c1,-,Candida albicans,MIC90,-,2508,turbidity,345 µg/mL
CO/N=C1\CN(c2nc3c(cc2F)c(=O)c(C(=O)O)cn3C2CC2)CC1CN,-,Streptococcus pneumoniae,MIC90,-,37 isolates (minocycline-resistant),-,0.063 µg/mL
CN1CCN(C(=O)CNC(=O)N2c3cccc(O)c3NC3=C(C(=O)CC(C)(C)C3)C2c2ccc(OCc3ccccc3)cc2Cl)CC1,-,Hepatitis C virus,EC50,-,1b,luciferase / reporter gene / replicon,87 µM